Values from PubChem BioAssay AID624099 (ICCB-Longwood, 2012)
Assay: 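Human genes that papillomavirus E2 requires to repress the HPV18 LCR promoter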 (primary screen). Cells: human C33A cervical carcinoma cells (HPV-negative) stably expressing BPV1 E2 and an HPV18 LCR luciferase reporter. Knock-down reagent: siRNA pool against human genes, 40 nM. Duration: 72 h. Measurement: 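HPV18 LCR reporter light per well, converted to plate-wise z-scores that exclude control wells, and averaged over triplicate plates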. Reading the numbers: mean z-score and z-score: higher = stronger reporter signal, weaker E2 silencing. Rule for the call: 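Mean z ≥ 2 together with z ≥ 2 in two or more of the three replicates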.
In all, the deposit lists about 21,000 reagents; this is a random part of them. In the full data, 497 (2.4%) got an active call. 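Higher z means weaker E2 silencing; only reporter increases were scored, and knock-downs that hurt cell survival may mask genuine repressor factors.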 No sequences are given here.

mean z-score	z-score, replicate A	z-score, replicate B	z-score, replicate C	call	Target gene
-0.51	-0.58	-0.59	-0.35	inactive	TIMP3 (TIMP metallopeptidase inhibitor 3)
-0.97	-1.07	-1.27	-0.58	inactive	OTOP1 (otopetrin 1)
0.57	0.51	0.67	0.52	inactive	RBMX2 (RNA binding motif protein X-linked 2)
-0.3	0.16	-0.32	-0.74	inactive	LOC392997 (retired record)
0.43	0.51	0.34	0.43	inactive	OXCT1 (3-oxoacid CoA-transferase 1)
-0.28	-0.22	-0.1	-0.52	inactive	NANOS2 (nanos C2HC-type zinc finger 2)
0.57	0.66	0.49	0.57	inactive	ARNT2 (aryl hydrocarbon receptor nuclear translocator 2)
-0.18	0.02	-0.21	-0.34	inactive	LOC401182 (retired record)
0.58	0.7	0.38	0.67	inactive	INSR (insulin receptor)
0.2	0.15	0.31	0.14	inactive	STOML3 (stomatin like 3)
-0.16	-0.26	0.09	-0.31	inactive	SUPT7L (SPT7 like, STAGA complex subunit gamma)
-0.3	-0.31	-0.39	-0.21	inactive	PARL (presenilin associated rhomboid like)
1.2	0.87	1.7	1.02	inactive	SPZ1 (spermatogenic leucine zipper 1)
-0.47	-0.76	-0.8	0.14	inactive	PYDC2 (pyrin domain containing 2)
0.55	0.87	0.61	0.18	inactive	SCRN3 (secernin 3)
-0.01	0	0.13	-0.15	inactive	LMO2 (LIM domain only 2)
-0.91	-1.03	-0.76	-0.93	inactive	ZPLD1 (zona pellucida like domain containing 1)
-0.5	-0.05	-1.06	-0.38	inactive	DYNLL1P3 (dynein light chain LC8-type 1 pseudogene 3)
0.06	0.31	0.08	-0.21	inactive	EPHA8 (EPH receptor A8)
-0.48	-0.4	-0.54	-0.51	inactive	THOC7 (THO complex subunit 7)
0.05	-0.09	0.14	0.09	inactive	LOC645733 (retired record)
-0.36	-0.17	-0.48	-0.44	inactive	SMIM24 (small integral membrane protein 24)
0.05	-0.13	-0.19	0.48	inactive	MARCO (macrophage receptor with collagenous structure)
0.12	0	0.38	-0.01	inactive	VPS4A (vacuolar protein sorting 4 homolog A)
0.86	0.86	0.87	0.86	inactive	CYB5R3 (cytochrome b5 reductase 3)
1.26	1.13	1.17	1.5	inactive	LINC01101 (long independently transcribed non-coding RNA 1101)
-0.5	-0.25	-0.94	-0.31	inactive	BCAR3 (BCAR3 adaptor protein, NSP family member)
0.32	0.35	0.39	0.21	inactive	IRF2 (interferon regulatory factor 2)
0.3	0	0.11	0.79	inactive	PID1 (phosphotyrosine interaction domain containing 1)
-0.24	-0.23	-0.41	-0.06	inactive	FIG4 (FIG4 phosphoinositide 5-phosphatase)
-0.05	0.07	-0.19	-0.04	inactive	IFITM2 (interferon induced transmembrane protein 2)
-0.41	-0.55	-0.37	-0.3	inactive	PIP4K2B (phosphatidylinositol-5-phosphate 4-kinase type 2 beta)
0.76	0.69	0.74	0.85	inactive	SELENBP1 (selenium binding protein 1)
1.45	1.08	1.79	1.46	inactive	NAP1L5 (nucleosome assembly protein 1 like 5)
0.01	0.06	-0.25	0.22	inactive	PTHLH (parathyroid hormone like hormone)
-0.29	-0.3	-0.26	-0.32	inactive	TIMP1 (TIMP metallopeptidase inhibitor 1)
0.02	0.04	-0.02	0.05	inactive	INPP5K (inositol polyphosphate-5-phosphatase K)
-0.9	-1.33	-1.25	-0.1	inactive	TEKTL1 (tektin like 1)
-1.23	-1.36	-1.17	-1.16	inactive	ALOX12B (arachidonate 12-lipoxygenase, 12R type)
-2.4	-2.34	-2.4	-2.46	inactive	ALG1 (ALG1 chitobiosyldiphosphodolichol beta-mannosyltransferase)
-0.96	-0.98	-0.86	-1.04	inactive	GRIA4 (glutamate ionotropic receptor AMPA type subunit 4)
-1.42	-0.8	-1.97	-1.49	inactive	FER (FER tyrosine kinase)
-0.27	-0.32	-0.07	-0.42	inactive	DGAT2L6 (diacylglycerol O-acyltransferase 2 like 6)
0.74	0.53	1.09	0.6	inactive	C1orf35 (chromosome 1 open reading frame 35)
0.57	1.07	0.67	-0.04	inactive	UVSSA (UV stimulated scaffold protein A)
0.57	0.75	0.55	0.42	inactive	POLR1E (RNA polymerase I subunit E)
-0.93	-0.67	-1.26	-0.86	inactive	CTDSPL2 (CTD small phosphatase like 2)
1.25	0.9	1.44	1.41	inactive	IFNGR2 (interferon gamma receptor 2)
0.44	1.4	-0.02	-0.07	inactive	RBM20 (RNA binding motif protein 20)
0.39	0.46	0.13	0.59	inactive	PCDHGB3 (protocadherin gamma subfamily B, 3)
2.43	2.45	2.81	2.03	active	ARRDC1 (arrestin domain containing 1)
0.25	0.13	0.09	0.52	inactive	TTC24 (tetratricopeptide repeat domain 24)
0.28	0.51	0.4	-0.06	inactive	LIMK1 (LIM domain kinase 1)
0.85	1.31	0.43	0.8	inactive	C11orf40 (chromosome 11 putative open reading frame 40)
-0.97	-0.6	-1.39	-0.92	inactive	KRTAP4-4 (keratin associated protein 4-4)
-0.41	-0.2	-0.59	-0.45	inactive	SYPL1 (synaptophysin like 1)
0.23	0.2	0.38	0.1	inactive	SGSM2 (small G protein signaling modulator 2)
